Source: patent US20060234971A1 (priority 2005, published 2006)

Test system: PrP27-30 accumulation in ScN2A cells
Assay: PrP27-30 accumulation in ScN2A cells
Conditions: 50 μM

CC(C)[C@H](NC(=O)OCc1ccccc1)C(=O)N[C@H](C=O)Cc1ccccc1 [MDL28170, Carbobenzoxy-valinyl-phenylalaninal]
accumulation of PrP27-30 (4 days of treatment (passage 1)): reduced
accumulation of PrP27-30 (passage 4): almost undetectable levels
